The values below come from patent US7626005B2, “Inhibitors of aminoglycoside 6′-N-acetyltransferases, compositions and uses thereof” (priority 2005, dated 2009).

Amino acid sequences for entries named in this document (tags omitted). Residues count along the entry.
UniProt Q47764, 1-182: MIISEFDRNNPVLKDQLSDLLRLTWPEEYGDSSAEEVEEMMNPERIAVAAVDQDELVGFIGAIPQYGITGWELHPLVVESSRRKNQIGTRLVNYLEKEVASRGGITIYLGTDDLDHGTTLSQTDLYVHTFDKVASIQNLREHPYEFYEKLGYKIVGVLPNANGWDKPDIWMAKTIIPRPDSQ
UniProt Q9R381, whole entry: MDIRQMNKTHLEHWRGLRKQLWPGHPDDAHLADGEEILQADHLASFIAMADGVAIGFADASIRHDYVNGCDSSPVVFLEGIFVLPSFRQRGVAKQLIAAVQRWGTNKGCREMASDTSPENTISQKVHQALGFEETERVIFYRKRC

Where two headings read alike, the source gives them in different places.

One experiment concerns the target AAC(6′)-Ii (Enterococcus faecium, UniProt Q47764). In words: AAC6′-Ii inhibition assay (DTDP-coupled, varying AcCoA). The class given is biochemical.
The next experiment concerns the target AAC(6′)-Iy (Salmonella enteritidis, UniProt Q9R381). In words: Inhibition assay of AAC(6′)-Iy. The experiment is classed as biochemical, Salmonella enterica. Particulars: read-out: AAC(6′)-Iy [Ki; (μM)]; Table 2.

As for `CC(C)(COP(=O)(O)OP(=O)(O)OC[C@H]1O[C@@H](n2cnc3c(N)ncnc32)[C@H](O)[C@@H]1OP(=O)(O)O)[C@@H](O)C(=O)NCCC(=O)NCCSCC(=O)NC[C@H]1O[C@H](O[C@@H]2[C@@H](O)[C@H](O[C@H]3O[C@H](CO)[C@@H](O)[C@H](N)[C@H]3O)[C@@H](N)C[C@H]2N)[C@H](O)[C@@H](O)[C@@H]1O`, the inhibitory constant (Ki) at AAC(6′)-Ii (Table 1, inhibition of AAC(6′)-Ii, varying AcCoA) was found to be 0.111 µM; at AAC(6′)-Ii (read-out: AAC(6′)-Ii [Ki, (μM)], Table 2) it was 0.111 µM; at AAC(6′)-Iy, 2.3 µM. The “Vm” value on AAC(6′)-Ii (Table 1, maximal velocity from the fit of the inhibition assay) came out at 0.17 ± 0.04 µM/s. Further, the “enhanced inhibition of AAC(6′)-Ii as compared to lysine-CoA conjugates (3a and 3b)” value on AAC(6′)-Ii (relative to 3a and 3b) amounted to 500 fold. The “type of inhibition (in words)” value at AAC(6′)-Ii (versus acetylCoA) is listed as “competitive inhibition versus acetylCoA”.

The Ki is a dissociation constant, usually derived from enzyme kinetics or from competition with a known ligand.
